Pooled drug test results. Numbers come from NIAID ChemDB, via PubChem.

All rows: tests on isolated targets; species: HIV-1; target: Reverse transcriptase; read by: nucleotide incorporation / radiometric; read-out: IC50

Lines come from different laboratories, so protocols vary.

structure,changes,strain or isolate,result
CN(CC(=O)O)C(=O)c1ccc(NC(=O)CSc2nnc(Br)n2-c2ccc(C3CC3)c3ccccc23)c(Cl)c1,RT-Y188L,-,>0.1 µM
Cc1cc(C2CC2)c2ccccc2c1-n1c(Br)nnc1SCC(=O)Nc1ccc(C(=O)O)cc1Cl,RT-Y181C,-,<0.05 µM
Cc1cc(S(N)(=O)=O)ccc1NC(=O)CSc1nnc(CF)n1-c1ccc(C)c2c1CCCC2,RT-Y181C,-,>0.1 µM
CCOC(=O)CNC(=O)c1ccc(NC(=O)CSc2nnc(Br)n2-c2ccc(C3CC3)c3ccccc23)c(Cl)c1,-,-,<0.05 µM
Cc1cc(S(N)(=O)=O)ccc1NC(=O)CSc1nnc(C)n1-c1ccc(C)c2c1CCCC2,RT-Y181C,-,>0.1 µM
CCN1c2ncccc2C(=O)N(C)c2ccc(-c3c[nH]c(C(C)=O)c3)nc21,RT-Y188L,-,>1 µM
CCN1c2nc(Cl)ccc2NC(=O)c2cc(CCc3ccncc3)cnc21,RT-Y181C,-,<1 µM
CCN1c2ncccc2C(=O)N(C)c2ccc(-c3cn[nH]c3C)nc21,-,WT,<1 µM
COc1ccc2cccc(-n3c(Br)nnc3SCC(=O)Nc3ccc(C(=O)O)cc3Cl)c2c1,RT-Y181C,-,<0.05 µM
CCN1c2ncc(CCOc3ccc(-c4cccc(C(C)C(=O)O)c4)cc3C)cc2C(=O)N(C)c2cccnc21,RT-K103N Y181C,IIIB,0.05–0.1 µM
Cc1cc(S(N)(=O)=O)ccc1NC(=O)CSc1nnc(Br)n1-c1ccc(C2CCC2)c2ccccc12,RT-Y188L,-,>0.1 µM
CCN1c2ncccc2C(=O)N(C)c2ccc(-c3cc[nH]c3C(C)=O)nc21,-,WT,<1 µM
CCN1c2ncc(CCOc3ccc(C(=O)O)c4c3CCN(C(C)=O)C4)cc2C(=O)N(C)c2cccnc21,RT-K103N Y181C,-,0.1–1 µM
CCc1ccc(-n2c(Br)nnc2SCC(=O)Nc2ccc(C(=O)NCC(=O)OC)cc2Cl)c2ccccc12,RT-Y181C,-,<0.05 µM
CCN1c2ncc(CCOc3ccc(C(=O)Nc4ccc(C(=O)O)cc4)cc3C)cc2C(=O)Nc2c(C)ccnc21,RT-K103N Y181C,IIIB,<0.05 µM
CC(C)[C@H](NC(=O)c1ccc(NC(=O)CSc2nnc(Br)n2-c2ccc(C3CC3)c3ccccc23)c(Cl)c1)C(=O)O,-,-,0.05–0.1 µM
CCN1c2ncc(CCOc3cccc4c3CC(=O)N4)cc2C(=O)N(C)c2cccnc21,-,IIIB,0.05–0.1 µM
CCc1ccc(-n2c(Br)nnc2SCC(=O)Nc2ccc(C(=O)O)cc2C)c2ccccc12,RT-Y181C,-,0.05–0.1 µM
Cc1cc(C)cc(S(=O)(=O)c2c(C(N)=O)[nH]c3ccc(Cl)cc23)c1,RT-K103N,-,0.003 µM
CCc1ccc(-n2c(CF)nnc2SCC(=O)Nc2ccc(S(=O)(=O)NC)cc2Cl)c2ccccc12,-,-,0.05–0.1 µM
CCN1c2ncc(CCOc3ccc(-c4ccc(C(=O)O)cn4)cc3C)cc2C(=O)N(C)c2cccnc21,RT-K103N Y181C,IIIB,<0.05 µM
CCc1ccc(-n2c(SCC(=O)Nc3ccc(C(=O)O)cc3Cl)nnc2C(F)(F)F)c2ccccc12,RT-Y188L,-,>0.1 µM
NS(=O)(=O)c1ccc(NC(=O)CSc2nnc(Br)n2-c2ccc(F)c3ccccc23)c(Cl)c1,RT-Y188L,-,>0.1 µM
Nc1nc2c(ncn2[C@H]2CC[C@@H](COP(=O)(O)OP(=O)(O)OP(=O)(O)O)O2)c(=O)[nH]1,RT-A62V V75I F77L F116Y Q151M,-,0.11 µM
CC[C@H](C)[C@H](NC(=O)c1ccc(NC(=O)CSc2nnc(Br)n2-c2ccc(C3CC3)c3ccccc23)c(Cl)c1)C(=O)O,-,-,<0.05 µM
CCN1c2ncc(CCOc3ccc(-c4ccc(C(=O)O)c(Cl)c4)cc3C)cc2C(=O)N(C)c2cccnc21,-,IIIB,<0.05 µM
Cc1cc(C)c(-n2c(SCC(=O)Nc3ccc(S(N)(=O)=O)cc3Cl)nnc2C(F)(F)F)c2c1CCCC2,-,-,<0.05 µM
CCN1c2ncccc2C(=O)N(C)c2ccc(-c3ccn[nH]3)nc21,-,WT,<1 µM
Cc1cc(C(=O)O)ccc1NC(=O)CSc1nnc(C(F)F)n1-c1ccc(C)c2c1CCCC2,-,-,<0.05 µM
NC(=O)c1[nH]c2ccc(Cl)cc2c1S(=O)(=O)c1ccccc1,RT-V106A,-,0.075 µM
CCOC(=O)N1CCC(NC(=O)c2ccc(NC(=O)CSc3nnc(Br)n3-c3ccc(CC)c4ccccc34)c(Cl)c2)CC1,RT-Y181C,-,<0.05 µM
CCN1c2ncc(CCc3ccncc3)cc2C(=O)N(C)c2ccc(=O)[nH]c21,RT-Y181C,-,>1 µM
CCOC(=O)c1cc(-c2ccc3c(n2)N(CC)c2ncccc2C(=O)N3C)c[nH]1,RT-Y188L,-,>1 µM
O=C(CSc1nnc(Br)n1-c1ccc(C2CCC2)c2ccccc12)Nc1ccc(C(=O)O)cc1Cl,-,-,<0.05 µM
CCN1c2ncc(CCOc3cccc4c3COC(=O)N4)cc2C(=O)Nc2c(C)ccnc21,RT-K103N Y181C,IIIB,>0.1 µM
CCN1c2ncc(CCOc3ccc(-c4ccc(CC(=O)O)cc4)cc3C)cc2C(=O)N(C)c2cccnc21,-,IIIB,<0.05 µM
CCN1c2ncccc2C(=O)N(C)c2ccc(-c3ccn(C)c3)nc21,RT-Y188L,-,>1 µM
CC(C)C[C@H](NC(=O)c1ccc(NC(=O)CSc2nnc(Br)n2-c2ccc(C3CC3)c3ccccc23)c(Cl)c1)C(=O)O,RT-Y188L,-,0.05–0.1 µM
Cc1cc(S(N)(=O)=O)ccc1NC(=O)CSc1nnc(C(F)F)n1-c1cccc2c(C#N)cccc12,RT-Y188L,-,>0.1 µM
CCc1ccc(-n2c(SCC(=O)Nc3ccc(C(=O)O)cc3Cl)nnc2C(F)F)c2ccccc12,RT-Y181C,-,<0.05 µM
CCN1c2ncc(CCOc3ccc(CC(C)C(=O)O)c4ccccc34)cc2C(=O)N(C)c2ccc(F)nc21,RT-K103N Y181C,-,0.1–1 µM
CCc1ccc(-n2c(Br)nnc2SCC(=O)Nc2ccc(C(=O)N3CCC(CN)CC3)cc2Cl)c2ccccc12,RT-Y181C,-,<0.05 µM
CCN1c2ncc(CCOc3ccc(-c4ccc(F)c(CC(=O)O)c4)cc3C)cc2C(=O)N(C)c2cccnc21,RT-K103N Y181C,IIIB,<0.05 µM
CCN1c2ncc(CCc3ccccc3)cc2C(=O)N(C)c2c1ncc(C)c2C,RT-Y181C,-,<1 µM
CCN1c2ncc(CCOc3ccc(-c4cccc(CC(=O)O)c4)cc3)cc2C(=O)N(C)c2cccnc21,RT-K103N Y181C,IIIB,>0.1 µM
CCN1c2ncc(CCOc3cccc4c3CCNC4=O)cc2C(=O)N(C)c2cccnc21,RT-K103N Y181C,IIIB,0.05–0.1 µM
CCN1c2ncc(CCc3cccc4[nH]ccc34)cc2C(=O)N(C)c2ccc(Cl)nc21,RT-Y181C,-,<1 µM
NS(=O)(=O)c1ccc(NC(=O)CSc2nnc(Br)n2-c2ccc(C3CC3)cc2)c(Cl)c1,-,-,<0.05 µM
Nc1ccn([C@H]2CC[C@@H](COP(=O)(O)OP(=O)(O)OP(=O)(O)O)O2)c(=O)n1,RT-V75I,-,1.4 µM
CCN1c2ncc(CCOc3ccc4on(C)c(=O)c4c3)cc2C(=O)Nc2c(C)cc(F)nc21,RT-K103N Y181C,IIIB,>0.1 µM
CCN1c2ncccc2C(=O)N(C)c2ccc(-c3cc4cc(OC)ccc4[nH]3)nc21,RT-Y188L,-,<1 µM
CCN1c2ncc(CCOc3ccc(C(=O)O)c4c3CCN(S(=O)(=O)N(C)C)C4)cc2C(=O)N(C)c2cccnc21,RT-V106A,-,0.1–1 µM
CCN1c2ncc(CCOc3cccc4c3CC(=O)N4C)cc2C(=O)N(C)c2cccnc21,-,IIIB,0.05–0.1 µM
CCN1c2ncc(CCOc3ccc(-c4cc(F)c(O)c(F)c4)cc3C)cc2C(=O)N(C)c2cccnc21,-,IIIB,<0.05 µM
CCN1c2ncc(CCOc3cccc4c3n(C)c(=O)n4C)cc2C(=O)N(C)c2cccnc21,-,IIIB,0.05–0.1 µM
CCc1ccc(-n2c(Br)nnc2SCC(=O)Nc2ccc(C(=O)NCC(=O)O)cc2Cl)c2ccccc12,RT-Y181C,-,<0.05 µM
CCN1c2ncc(CCOc3cccc4c3CNC(=O)N4CC(=O)O)cc2C(=O)N(C)c2cccnc21,-,IIIB,<0.05 µM
CC(C)[C@H](NC(=O)c1ccc(NC(=O)CSc2nnc(Br)n2-c2ccc(C3CC3)c3ccccc23)c(Cl)c1)C(=O)O,RT-Y181C,-,<0.05 µM
CCN1c2ncc(CCc3cccc(O)c3)cc2C(=O)N(C)c2cccnc21,RT-Y181C,-,<1 µM
CCN1c2ncc(CCOc3ccc(S(=O)(=O)NC(C)=O)c4ccccc34)cc2C(=O)N(C)c2cccnc21,-,WT,<0.1 µM
CCN1c2ncc(CCOc3ccc4c(c3)COC(=O)N4)cc2C(=O)N(C)c2cccnc21,RT-K103N Y181C,IIIB,>0.1 µM
CCN1c2ncccc2C(=O)N(C)c2ccc(-c3cn[nH]c3)nc21,-,WT,<1 µM
CCN1c2ncc(CCc3ccncc3)cc2C(=O)Nc2c(C)ccnc21,RT-Y181C,-,<1 µM
CCN1c2ncccc2C(=O)N(C)c2ccc(-c3c[nH]c(C(=O)O)c3)nc21,RT-Y181C,-,>1 µM
CCc1ccc(-n2c(Br)nnc2SCC(=O)Nc2ccc(S(N)(=O)=O)cc2Br)c2ccccc12,RT-Y181C,-,<0.05 µM

The first 5 rows once more:

structure	changes	strain or isolate	result
CN(CC(=O)O)C(=O)c1ccc(NC(=O)CSc2nnc(Br)n2-c2ccc(C3CC3)c3ccccc23)c(Cl)c1	RT-Y188L	-	>0.1 µM
Cc1cc(C2CC2)c2ccccc2c1-n1c(Br)nnc1SCC(=O)Nc1ccc(C(=O)O)cc1Cl	RT-Y181C	-	<0.05 µM
Cc1cc(S(N)(=O)=O)ccc1NC(=O)CSc1nnc(CF)n1-c1ccc(C)c2c1CCCC2	RT-Y181C	-	>0.1 µM
CCOC(=O)CNC(=O)c1ccc(NC(=O)CSc2nnc(Br)n2-c2ccc(C3CC3)c3ccccc23)c(Cl)c1	-	-	<0.05 µM
Cc1cc(S(N)(=O)=O)ccc1NC(=O)CSc1nnc(C)n1-c1ccc(C)c2c1CCCC2	RT-Y181C	-	>0.1 µM

ICn is the concentration giving n% inhibition. a–b is a range or a potency band. An empty or dashed field is not shown.